Results of unrelated studies side by side (data: NIAID ChemDB).

Shared fields: growth or infection tests; species: Mycobacterium tuberculosis

Percent inhibition refers to the dose given; in toxicity tests it is the harm to the cells. MIC50, MIC90 and the like: level of inhibition, or share of isolates inhibited. MIC bound comes from a single tested concentration. Lines come from different laboratories, so protocols vary. An empty or dashed field is not shown. ECn is the concentration giving n% inhibition of infection, replication or growth.

smiles	endpoint	tested at	mutations	read by	cells	strain	value
C=C(NC(=O)c1csc(-c2nc3c(cc2O)-c2nc(cs2)C(=O)N[C@@H]([C@@H](C)O)C(=O)N/C(=C(\C)OC)c2nc(cs2)C(=O)N[C@@H]2c4nc(cs4)C(=O)N[C@@H](COC(=O)c4c5c6c(cccc6n4O)COC(=O)[C@@H](O[C@H]4C[C@](C)(O)[C@H](N(C)C)[C@H](C)O4)[C@H]2OC5)c2nc-3cs2)n1)C(N)=O	MIC			broth dilution		Clinical isolate 16116	≤2.5 µM
CCN(CC)c1ccc(/C=N/Nc2cc(C)nc3cc(OC)ccc23)cc1	MIC				VERO	H37Rv	12.5 µg/mL
O=S(=O)(NO)c1ccccc1	MIC						>40 µg/mL
COc1cc2oc3cc(O)c(CCC(C)C)c(O)c3c(=O)c2c(CCC(C)C)c1OC	MIC			resazurin		M22	1.56 µg/mL
Cc1ccc2c(c1)[n+]([O-])c1c3ccccc3[nH]c1[n+]2[O-]	MIC bound			resazurin		H37Rv	>6.25 µg/mL
O=[N+]([O-])c1cn2c(n1)OC[C@@H](OCc1ccc(N3CCN(S(=O)(=O)c4ccc(OC(F)(F)F)cc4)CC3)cc1)C2	MIC90			resazurin			0.5 µM
NC(=O)c1cnccn1	MIC					Isolate H2374 (RIF-resistant)	>900 µg/mL
CC1COc2c(N3CCN(C)CC3)c(F)cc3c(=O)c(C(=O)O)cn1c23	MIC					900240	0.5 µg/mL
CC(=O)C(CO)C(=O)Nc1ccccc1	inhibition	12.5 µg/mL		BACTEC		H37Rv	36%
CN(C)c1ccc(C(=O)NN)cc1	MIC						40 µg/mL
NC[C@H]1O[C@H](O[C@H]2[C@H](O)[C@@H](O[C@H]3O[C@H](CO)[C@@H](O)[C@H](N)[C@H]3O)[C@H](N)C[C@@H]2N)[C@H](O)[C@@H](O)[C@@H]1O	MIC					90-0240 (drug-susceptible)	2 µg/mL
CCN(CC)c1ccc(/C=N/Nc2ccnc3cc(OC)ccc23)cc1	inhibition	12.5 µg/mL			VERO	H37Rv	100%
O=C(O)C[C@@H]1C(=O)O[C@H]2[C@@H]3OC(=O)c4cc(O)c(O)c(O)c4-c4c(cc(O)c(O)c4O)C(=O)OC[C@H]2O[C@@H](OC(=O)c2cc(O)c(O)c(O)c2)[C@@H]3OC(=O)c2cc(O)c(O)c3c2[C@H]1[C@H](O)C(=O)O3	MIC bound			BACTEC		H37Rv	>12.5 µg/mL
NNC(=O)C1CCCCC1	MIC						>200 µg/mL
NCC[C@H](O)C(=O)N[C@@H]1C[C@H](N)[C@@H](O[C@H]2O[C@H](CN)[C@@H](O)[C@H](O)[C@H]2O)[C@H](O)[C@H]1O[C@H]1O[C@H](CO)[C@@H](O)[C@H](N)[C@H]1O	MIC					90-0201 (drug-susceptible)	0.5 µg/mL
CC1=NNC(=O)CC1	MIC						>40 µg/mL
CO[C@H]1/C=C/O[C@@]2(C)Oc3c(C)c(O)c4c(O)c(c(/C=N/N5CCN(C)CC5)c(O)c4c3C2=O)NC(=O)/C(C)=C\C=C\[C@H](C)[C@H](O)[C@@H](C)[C@@H](O)[C@@H](C)[C@H](OC(C)=O)[C@@H]1C	MIC					90-0145 (drug-susceptible)	0.4 µg/mL
COc1ccc(-c2cnc(C(N)=O)c(=O)[nH]2)cc1	inhibition	12.5 µg/mL		BACTEC		H37Rv	44%
CO[C@H]1/C=C/O[C@@]2(C)Oc3c(C)c(O)c4c(O)c(c5c(c4c3C2=O)NC2(CCN(CC(C)C)CC2)N=5)=NC(=O)/C(C)=C\C=C\[C@H](C)[C@H](O)[C@@H](C)[C@@H](O)[C@@H](C)[C@H](OC(C)=O)[C@@H]1C	MIC					Strain 63 (L521L)	0.03 µg/mL
CCCOc1cc2oc3cc(O)c(CCC(C)C)c(O)c3c(=O)c2c(CCC(C)C)c1OC	MIC		MDR	resazurin		M8	3.12 µg/mL
CC(C)n1c(-c2ccc(Cl)cc2Cl)cs/c1=N\NC(=O)COc1cnccn1	MIC					H37Rv	8.2 µg/mL
CCc1cc(C(N)=S)ccn1	MIC					90-0240 (drug-susceptible)	0.5 µg/mL
O=C(NN=C1CCCCC1)c1ccccc1	MIC						50 µg/mL
NC(=O)c1ccc(=S)[nH]c1	MIC			BACTEC		H37Rv	≥12.5 µg/mL
Cc1cccc(C2SCC(=O)N2C(=O)NCCCN2c3ccccc3Sc3ccccc32)c1	inhibition	50 µg/mL		agar		H37Rv	42%
COc1c(OC(C)=O)cc2oc3cc(OC(C)=O)c(CCC(C)C)c(O)c3c(=O)c2c1CCC(C)C	MIC			resazurin		H37Ra	3.12 µg/mL
NNC(=O)C1CC=CC(Cl)C1C(=O)NN	MIC						>200 µg/mL
O=NNc1cccc(NN=O)n1	MIC			BACTEC		H37Rv	≥12.5 µg/mL
CC(C)CCc1c(O)cc2oc3cc(O)c(O)c(CCC(C)C)c3c(=O)c2c1O	MIC			resazurin		H37Ra	6.25 µg/mL
NNC(=O)/C(=C\c1ccco1)NC(=O)c1ccccc1	MIC						40 µg/mL
CCCCN1C(=O)C(C)S/C1=N\N=C1/C(=O)Nc2ccccc21	EC50					H37Rv	>12 µg/mL
O=C1C2=C(Nc3cc(Cl)ccc3N2)OC1c1ccccc1Cl	MIC bound			BACTEC		H37Rv	>12.5 µg/mL
O=[N+]([O-])c1cn2c(n1)OC[C@@H](OCc1ccc(C#Cc3ccc(C(F)(F)F)cc3)cc1)C2	MIC90			low oxygen			>128 µM
O=C(COc1cnccn1)NNC(=S)Nc1ccc(Cl)cc1[N+](=O)[O-]	MIC					H37Rv	52 µg/mL
CN(C)c1ccc(/C=N/NC=O)c(Cl)c1	MIC bound			BACTEC		H37Rv	>12.5 µg/mL
Cc1cc(-c2cc3c(cc2F)c(=O)c(C(=O)O)cn3C2CC2)cc(C)n1	MBC					1620-6	8 µg/mL
O=C(ONC(=O)[C@H]1C2C=CC(C2)[C@@H]1C(=O)NOC(=O)c1ccccc1)c1ccccc1	inhibition	6.25 µg/mL		resazurin		H37Rv	30%
O=C(COc1cnccn1)N/N=c1\scc(-c2ccc(Cl)cc2)n1-c1ccc(Cl)cc1Cl	MIC					H37Rv	11.9 µg/mL
CC1(C)CN(CCO)C(C)(C)CN1	inhibition	12.5 µg/mL		BACTEC		H37Rv	8%
O=C(N/N=C/c1ccccc1)c1ccc(Nc2ccc(-c3ccccc3)cc2)cc1	MIC						>10 µg/mL
COc1ccc(/C=N/Nc2cc(C)nc3cc(Cl)ccc23)c2ccccc12	MIC				VERO	H37Rv	0.78 µg/mL
CN1c2ccccc2N=Cc2c1oc1ccc3ccccc3c1c2=O	inhibition	12.5 µg/mL		BACTEC		H37Rv	0%
CCOc1ccc2c(NN)cc(C)nc2c1	MIC				VERO	H37Rv	12.5 µg/mL
O=C(/N=C/c1ccccc1Cl)NCCCN1c2ccccc2Sc2ccccc21	inhibition	50 µg/mL		agar		H37Rv	35%
C[C@H]1COc2c(N3CCN(C)CC3)c(F)cc3c(=O)c(C(=O)O)cn1c23	MIC					Strain 361	0.5 µg/mL
N[C@@H]1CONC1=O	MIC					90-0145 (drug-susceptible)	50 µg/mL
COc1cc(C#N)c(NC(=S)N2CCN(C(=O)c3ccco3)CC2)cc1OC	inhibition	12.5 µg/mL		BACTEC		H37Rv	0%
CCCCn1c(C)c(C(=O)O)s/c1=N\N=C1/C(=O)Nc2ccccc21	MIC					H37Rv	>12.5 µg/mL
NC(=O)NCCCN1c2ccccc2Sc2ccccc21	inhibition	50 µg/mL		agar		H37Rv	18%
CO/C(C)=C1/NC(=O)[C@H]([C@@H](C)O)NC(=O)c2csc(n2)-c2cc(O)c(-c3nc(C(=O)NCCCN4CCOCC4)cs3)nc2-c2csc(n2)[C@@H]2COC(=O)c3c4c5c(cccc5n3O)COC(=O)[C@@H](O[C@H]3C[C@](C)(O)[C@H](N(C)C)[C@H](C)O3)[C@@H](OC4)[C@H](NC(=O)c3csc1n3)c1nc(cs1)C(=O)N2	MIC		Rifampicin- and isoniazid-resistant	broth dilution		Clinical isolate 1868	≤2.5 µM
Brc1ccc2c(ccc3c2nnc2ncnn23)c1	MIC bound			resazurin		H37Rv	<6.25 µg/mL
CC(=O)c1c(OCCO)cc2oc3cc(OCCO)c(CCC(C)C)c(O)c3c(=O)c2c1CCC(C)C	MIC			resazurin		H37Ra	3.12 µg/mL
NNS(=O)(=O)c1ccc(-c2ccc(S(=O)(=O)NN)cc2)cc1	MIC						>40 µg/mL
O=[N+]([O-])c1cn2c(n1)OC[C@@H](OCc1ccnc(N3CCC(Oc4ccc(OC(F)(F)F)cc4)CC3)c1)C2	MIC90			resazurin			0.25 µM
CC(C)=NNC(=O)C1CCN1Cc1ccccc1	MIC bound			BACTEC		H37Rv	>12.5 µg/mL
O=[N+]([O-])c1cn2c(n1)OC[C@@H](OCc1ccnc(N3CCC(Oc4ccc(C(F)(F)F)nc4)CC3)c1)C2	MIC90			resazurin			0.27 µM
O=C(COc1cnccn1)N/N=c1\scc(-c2ccccc2)n1-c1ccc(Cl)cc1	MIC					H37Rv	12.5 µg/mL
Cc1c(C(=O)O)s/c(=N\N=C2/C(=O)Nc3ccccc32)n1-c1ccc(Cl)cc1.O	MIC					H37Rv	>12.5 µg/mL
NNC(=O)c1ccncc1	MIC			broth dilution		Clinical isolate 12850	≤0.2 µM
O=C(CSc1nc2ccc(Cl)cc2c(=O)n1-c1ccccc1)N=Nc1c(O)[nH]c2ccc(Br)cc12	inhibition	12 µg/mL				H37Rv	88%
NNC(=O)c1ccncc1	MIC					H37Rv	0.02 µg/mL
O=C(NCCCN1c2ccccc2Sc2ccccc21)N1C(=O)/C(=C\c2ccc(Br)cc2)SC1c1ccc(Br)cc1	inhibition	50 µg/mL		agar		H37Rv	78%
CC(=O)Nc1ccc(S(=O)(=O)N/N=C/c2c(O)ccc3ccccc23)cc1	inhibition	12.5 µg/mL		BACTEC		H37Rv	15%
COc1ccc(-c2cs/c(=N\NC(=O)COc3cnccn3)n2-c2ccc(Cl)cc2Cl)cc1	MIC					H37Rv	9.6 µg/mL
CCCCOc1cc2oc3cc(OCCCC)c(C(C)=O)c(CCC(C)C)c3c(=O)c2c(O)c1CCC(C)C	MIC			resazurin		H37Ra	>200 µg/mL
CO[C@H]1/C=C/O[C@@]2(C)Oc3c(C)c(O)c4c(O)c(c(/C=N/N5CCN(C)CC5)c(O)c4c3C2=O)NC(=O)/C(C)=C\C=C\[C@H](C)[C@H](O)[C@@H](C)[C@@H](O)[C@@H](C)[C@H](OC(C)=O)[C@@H]1C	MIC		Rifampicin- and isoniazid-resistant	broth dilution		Clinical isolate 10975	>10 µM
CCOc1ccc(N2C(=O)CS/C2=N\NC(=O)COc2cnccn2)cc1	MIC					H37Rv	175 µg/mL
COc1ccc2cc1-c1cc(ccc1O)C[C@H]1c3cc4c(cc3CCN1C)Oc1c(OC)cc3c(c1O4)[C@H](C2)N(C)CC3	MIC					EMB-R	3.1 µg/mL
CO[C@H]1/C=C/O[C@@]2(C)Oc3c(C)c(O)c4c(O)c(c(/C=N/N5CCN(C)CC5)c(O)c4c3C2=O)NC(=O)/C(C)=C\C=C\[C@H](C)[C@H](O)[C@@H](C)[C@@H](O)[C@@H](C)[C@H](OC(C)=O)[C@@H]1C	MIC					TN644	>32 µg/mL
Cc1cccc(/C=C2/SC(c3cccc(C)c3)N(C(=O)NCCCN3c4ccccc4Sc4ccccc43)C2=O)c1	inhibition	25 µg/mL		agar		H37Rv	18%
CC(C)c1ccc(O)c(O)c(=O)c1	MIC			BACTEC		H37Rv	32 µg/mL
COc1c(O)cc2oc3cc(O)c(CCC(C)C)c(O)c3c(=O)c2c1CCC(C)C	MIC		MDR	resazurin		8	3.12 µg/mL
COc1cc2c(c([N+](=O)[O-])c1)NC(=O)CC(C)S2	MIC bound			BACTEC		H37Rv	>12.5 µg/mL
CCCCOc1cc2oc3cc(O)c(CCC(C)C)c(O)c3c(=O)c2c(CCC(C)C)c1OC	MIC			resazurin		H37Ra	1.56 µg/mL
Cc1ccccc1-n1c(SCC(=O)NC(=O)Nc2cccc(Cl)c2)nc2c(Br)cc(Br)cc2c1=O	MIC bound			BACTEC		H37Rv	≤12.5 µg/mL
CCCCc1ccc2nccc(NN)c2c1	MIC				VERO	H37Rv	6.25 µg/mL
O=[N+]([O-])c1cn2c(n1)OC[C@@H](OCc1ccnc(N3CCN(c4ccc(OC(F)(F)F)cc4)CC3)c1)C2	MIC90			low oxygen			1 µM
COc1cc2c3c(c1OC)Oc1ccc(cc1)CC1c4c(cc(OC)c(OC)c4Oc4ccc(cc4)CC3N(C)CC2)CCN1C	inhibition	12.5 µg/mL		BACTEC		H37Rv	7%
COc1c(N2CCNC(C)C2)c(F)cc2c(=O)c(C(=O)O)cn(C3CC3)c12	MIC					Strain 158	>16 µg/mL

Repeating the final 9 entries:

smiles | endpoint | tested at | mutations | read by | cells | strain | value
CC(C)c1ccc(O)c(O)c(=O)c1 | MIC |  |  | BACTEC |  | H37Rv | 32 µg/mL
COc1c(O)cc2oc3cc(O)c(CCC(C)C)c(O)c3c(=O)c2c1CCC(C)C | MIC |  | MDR | resazurin |  | 8 | 3.12 µg/mL
COc1cc2c(c([N+](=O)[O-])c1)NC(=O)CC(C)S2 | MIC bound |  |  | BACTEC |  | H37Rv | >12.5 µg/mL
CCCCOc1cc2oc3cc(O)c(CCC(C)C)c(O)c3c(=O)c2c(CCC(C)C)c1OC | MIC |  |  | resazurin |  | H37Ra | 1.56 µg/mL
Cc1ccccc1-n1c(SCC(=O)NC(=O)Nc2cccc(Cl)c2)nc2c(Br)cc(Br)cc2c1=O | MIC bound |  |  | BACTEC |  | H37Rv | ≤12.5 µg/mL
CCCCc1ccc2nccc(NN)c2c1 | MIC |  |  |  | VERO | H37Rv | 6.25 µg/mL
O=[N+]([O-])c1cn2c(n1)OC[C@@H](OCc1ccnc(N3CCN(c4ccc(OC(F)(F)F)cc4)CC3)c1)C2 | MIC90 |  |  | low oxygen |  |  | 1 µM
COc1cc2c3c(c1OC)Oc1ccc(cc1)CC1c4c(cc(OC)c(OC)c4Oc4ccc(cc4)CC3N(C)CC2)CCN1C | inhibition | 12.5 µg/mL |  | BACTEC |  | H37Rv | 7%
COc1c(N2CCNC(C)C2)c(F)cc2c(=O)c(C(=O)O)cn(C3CC3)c12 | MIC |  |  |  |  | Strain 158 | >16 µg/mL